Measurements: article PMC11570497 (Nature Plants, 2024)

Test system: P69B–His
Assay: Qcsp8 cleavage by purified P69B-His
Conditions: 0.5 μg P69B–His; 10 μM Qcsp8; n = 4

CC(C)[C@H](NC(=O)c1ccc(N=Nc2ccc(N(C)C)cc2)cc1)C(=O)N[C@@H](CCCCN)C(=O)N[C@@H](Cc1c[nH]c2ccccc12)C(=O)N[C@@H](Cc1ccccc1)C(=O)N[C@@H](CC(N)=O)C(=O)N[C@@H](CC(N)=O)C(=O)N[C@@H](C)C(=O)N[C@@H](CCCCN)C(=O)NCCNc1cccc2c(S(=O)(=O)O)cccc12
cleavage of Qcsp8 by purified P69B–His (fluorescence): not cleaved
